Laboratory results published in PMC3974725, “A Random Sequential Mechanism of Aminoglycoside Acetylation by Mycobacterium tuberculosis Eis Protein” (PLoS ONE, 2014).

Chains of the proteins cited; added tags and fusions are not shown. Lines headed by an entry give the natural chain unless they say otherwise; changes in a name come on top.
UniProt P9WFK7: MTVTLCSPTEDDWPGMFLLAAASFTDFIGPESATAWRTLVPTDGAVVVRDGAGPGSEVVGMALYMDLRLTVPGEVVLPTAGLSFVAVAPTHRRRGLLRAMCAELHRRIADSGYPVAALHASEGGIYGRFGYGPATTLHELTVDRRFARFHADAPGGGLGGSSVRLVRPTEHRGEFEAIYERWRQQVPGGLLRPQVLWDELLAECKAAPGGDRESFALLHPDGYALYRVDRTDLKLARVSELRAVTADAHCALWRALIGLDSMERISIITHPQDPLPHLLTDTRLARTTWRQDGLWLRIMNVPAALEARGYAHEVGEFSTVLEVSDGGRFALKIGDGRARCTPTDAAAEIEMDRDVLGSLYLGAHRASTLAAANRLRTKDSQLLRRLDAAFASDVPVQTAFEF

Target: MtEis (Mycobacterium tuberculosis, UniProt P9WFK7)
Assay: Steady-state acetyltransferase assays (DTNB, absorbance at 412 nm), bisubstrate kinetic analysis
Format: biochemical

kanamycin A showed a Kd (binding of AG to free enzyme, from thermodynamic cycle K d,AcCoA(E) K d,AG(AcCoA•E)/K d,AcCoA(AG•E), read-out: K d,AG(E)) of 176 ± 144 µM and a Kd (binding of AG to the AcCoA bound enzyme, simultaneous fit of KAN and NEO acetylation data, read-out: K d,AG(AcCoA•E)) of 439 ± 52 µM.

Where two headings read alike, the source gives them in different places.
